{"source": "patent US20090281028A1", "key": {"[1]": {"biological_target": "T1, human Kv1.1 channel (human), Q09470", "T1 chain": "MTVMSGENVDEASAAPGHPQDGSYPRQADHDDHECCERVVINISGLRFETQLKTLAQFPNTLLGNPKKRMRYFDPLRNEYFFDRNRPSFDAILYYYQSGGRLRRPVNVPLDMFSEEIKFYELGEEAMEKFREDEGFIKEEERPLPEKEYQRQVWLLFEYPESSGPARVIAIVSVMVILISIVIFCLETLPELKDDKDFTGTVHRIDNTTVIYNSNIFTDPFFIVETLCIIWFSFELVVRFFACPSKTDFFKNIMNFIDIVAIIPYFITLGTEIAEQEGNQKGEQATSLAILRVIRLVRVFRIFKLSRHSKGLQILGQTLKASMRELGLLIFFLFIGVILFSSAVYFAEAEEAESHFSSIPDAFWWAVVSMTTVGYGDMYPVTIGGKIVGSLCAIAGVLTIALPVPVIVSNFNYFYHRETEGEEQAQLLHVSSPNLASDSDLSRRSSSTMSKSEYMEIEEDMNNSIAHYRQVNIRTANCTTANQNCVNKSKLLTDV", "experiment": "cell-based or functional assay"}, "[2]": {"biological_target": "human Kv1.3 channel (human), P22001", "experiment": "cell-based or functional assay"}}, "data": [{"binder": "GVIINVKCKISRQCLEPCKAAGMRFGKCMNGKCHCTPK (modifications not checked)", "note": "[OSK1 K20A]", "values": [{"measurement": "Kv1.1 IC50 (IonWorks electrophysiology)", "setting": "[1]", "result": 185, "unit": "pM"}, {"measurement": "Kv1.3 IC50 (IonWorks electrophysiology)", "setting": "[2]", "result": 1040, "unit": "pM"}, {"measurement": "WB/IFNg IC50 (human whole blood)", "setting": "[2]", "result": 0.379, "unit": "nM"}, {"measurement": "WB/IL-2 IC50 (human whole blood)", "setting": "[2]", "result": 0.379, "unit": "nM"}]}, {"binder": "GVIINVKCKISRQCLEPCKKAAMRFGKCMNGKCHCTPK (modifications not checked)", "note": "[OSK1 G22A]", "values": [{"measurement": "Kv1.1 IC50 (IonWorks electrophysiology)", "setting": "[1]", "result": "> 3000", "unit": "pM"}, {"measurement": "Kv1.3 IC50 (IonWorks electrophysiology)", "setting": "[2]", "result": "> 3000", "unit": "pM"}, {"measurement": "WB/IFNg IC50 (human whole blood)", "setting": "[2]", "result": 7.09, "unit": "nM"}, {"measurement": "WB/IL-2 IC50 (human whole blood)", "setting": "[2]", "result": 7.09, "unit": "nM"}]}, {"binder": "GVIINVKCKISRQCLEPCKKAGARFGKCMNGKCHCTPK (modifications not checked)", "note": "[OSK1 M23A]", "values": [{"measurement": "Kv1.1 IC50 (IonWorks electrophysiology)", "setting": "[1]", "result": 38.6, "unit": "pM"}, {"measurement": "Kv1.3 IC50 (IonWorks electrophysiology)", "setting": "[2]", "result": 71.4, "unit": "pM"}, {"measurement": "WB/IFNg IC50 (human whole blood)", "setting": "[2]", "result": 0.275, "unit": "nM"}, {"measurement": "WB/IL-2 IC50 (human whole blood)", "setting": "[2]", "result": 0.275, "unit": "nM"}]}, {"binder": "GVIINVKCKISRQCLEPCKKAGMAFGKCMNGKCHCTPK (modifications not checked)", "note": "[OSK1 R24A]", "values": [{"measurement": "Kv1.1 IC50 (IonWorks electrophysiology)", "setting": "[1]", "result": 1890, "unit": "pM"}, {"measurement": "Kv1.3 IC50 (IonWorks electrophysiology)", "setting": "[2]", "result": "> 3000", "unit": "pM"}]}, {"binder": "GVIINVKCKISRQCLEPCKKAGMRAGKCMNGKCHCTPK (modifications not checked)", "note": "[OSK1 F25A]", "values": [{"measurement": "Kv1.1 IC50 (IonWorks electrophysiology)", "setting": "[1]", "result": 47.3, "unit": "pM"}, {"measurement": "Kv1.3 IC50 (IonWorks electrophysiology)", "setting": "[2]", "result": 1490, "unit": "pM"}, {"measurement": "WB/IFNg IC50 (human whole blood)", "setting": "[2]", "result": 3.08, "unit": "nM"}, {"measurement": "WB/IL-2 IC50 (human whole blood)", "setting": "[2]", "result": 3.08, "unit": "nM"}]}, {"binder": "GVIINVKCKISRQCLEPCKKAGMRFAKCMNGKCHCTPK (modifications not checked)", "note": "[OSK1 G26A]", "values": [{"measurement": "Kv1.1 IC50 (IonWorks electrophysiology)", "setting": "[1]", "result": 733, "unit": "pM"}, {"measurement": "Kv1.3 IC50 (IonWorks electrophysiology)", "setting": "[2]", "result": 711, "unit": "pM"}, {"measurement": "WB/IFNg IC50 (human whole blood)", "setting": "[2]", "result": 10.7, "unit": "nM"}, {"measurement": "WB/IL-2 IC50 (human whole blood)", "setting": "[2]", "result": 12.1, "unit": "nM"}]}, {"binder": "GVIINVKCKISRQCLEPCKKAGMRFGACMNGKCHCTPK (modifications not checked)", "note": "[OSK1 K27A]", "values": [{"measurement": "Kv1.1 IC50 (IonWorks electrophysiology)", "setting": "[1]", "result": "> 3000", "unit": "pM"}, {"measurement": "Kv1.3 IC50 (IonWorks electrophysiology)", "setting": "[2]", "result": 232, "unit": "pM"}, {"measurement": "WB/IFNg IC50 (human whole blood)", "setting": "[2]", "result": 1.58, "unit": "nM"}]}, {"binder": "GVIINVKCKISRQCLEPCKKAGMRFGKCANGKCHCTPK (modifications not checked)", "note": "[OSK1 M29A]", "values": [{"measurement": "Kv1.1 IC50 (IonWorks electrophysiology)", "setting": "[1]", "result": "> 3330", "unit": "pM"}, {"measurement": "Kv1.3 IC50 (IonWorks electrophysiology)", "setting": "[2]", "result": 59.5, "unit": "pM"}, {"measurement": "WB/IFNg IC50 (human whole blood)", "setting": "[2]", "result": 0.292, "unit": "nM"}, {"measurement": "WB/IL-2 IC50 (human whole blood)", "setting": "[2]", "result": 0.447, "unit": "nM"}]}, {"binder": "GVIINVKCKISRQCLEPCKKAGMRFGKCMAGKCHCTPK (modifications not checked)", "note": "[OSK1 N30A]", "values": [{"measurement": "Kv1.1 IC50 (IonWorks electrophysiology)", "setting": "[1]", "result": "> 3000", "unit": "pM"}, {"measurement": "Kv1.3 IC50 (IonWorks electrophysiology)", "setting": "[2]", "result": 693, "unit": "pM"}, {"measurement": "WB/IFNg IC50 (human whole blood)", "setting": "[2]", "result": 0.637, "unit": "nM"}, {"measurement": "WB/IL-2 IC50 (human whole blood)", "setting": "[2]", "result": 0.971, "unit": "nM"}]}, {"binder": "GVIINVKCKISRQCLEPCKKAGMRFGKCMNAKCHCTPK (modifications not checked)", "note": "[OSK1 G31A]", "values": [{"measurement": "Kv1.1 IC50 (IonWorks electrophysiology)", "setting": "[1]", "result": 61.8, "unit": "pM"}, {"measurement": "Kv1.3 IC50 (IonWorks electrophysiology)", "setting": "[2]", "result": 70.2, "unit": "pM"}]}, {"binder": "GVIINVKCKISRQCLEPCKKAGMRFGKCMNGKCACTPK (modifications not checked)", "note": "[OSK1 H34A]", "values": [{"measurement": "Kv1.1 IC50 (IonWorks electrophysiology)", "setting": "[1]", "result": 368, "unit": "pM"}, {"measurement": "Kv1.3 IC50 (IonWorks electrophysiology)", "setting": "[2]", "result": 19.4, "unit": "pM"}, {"measurement": "WB/IFNg IC50 (human whole blood)", "setting": "[2]", "result": 0.0573, "unit": "nM"}, {"measurement": "WB/IL-2 IC50 (human whole blood)", "setting": "[2]", "result": 0.0725, "unit": "nM"}]}, {"binder": "RVIINVKCKISRQCLEPCKKAGMRFGKCMNGKCHCTPK (modifications not checked)", "note": "[OSK1 G1R]", "values": [{"measurement": "Kv1.1 IC50 (IonWorks electrophysiology)", "setting": "[1]", "result": 9.91, "unit": "pM"}, {"measurement": "Kv1.3 IC50 (IonWorks electrophysiology)", "setting": "[2]", "result": 68.8, "unit": "pM"}, {"measurement": "WB/IFNg IC50 (human whole blood)", "setting": "[2]", "result": 0.991, "unit": "nM"}, {"measurement": "WB/IL-2 IC50 (human whole blood)", "setting": "[2]", "result": 0.554, "unit": "nM"}]}, {"binder": "GRIINVKCKISRQCLEPCKKAGMRFGKCMNGKCHCTPK (modifications not checked)", "note": "[OSK1 V2R]", "values": [{"measurement": "Kv1.1 IC50 (IonWorks electrophysiology)", "setting": "[1]", "result": 25.8, "unit": "pM"}, {"measurement": "Kv1.3 IC50 (IonWorks electrophysiology)", "setting": "[2]", "result": 133, "unit": "pM"}, {"measurement": "WB/IFNg IC50 (human whole blood)", "setting": "[2]", "result": 0.986, "unit": "nM"}, {"measurement": "WB/IL-2 IC50 (human whole blood)", "setting": "[2]", "result": 0.775, "unit": "nM"}]}, {"binder": "GVRINVKCKISRQCLEPCKKAGMRFGKCMNGKCHCTPK (modifications not checked)", "note": "[OSK1 I3R]", "values": [{"measurement": "Kv1.1 IC50 (IonWorks electrophysiology)", "setting": "[1]", "result": 2.47, "unit": "pM"}, {"measurement": "Kv1.3 IC50 (IonWorks electrophysiology)", "setting": "[2]", "result": 19.9, "unit": "pM"}, {"measurement": "WB/IFNg IC50 (human whole blood)", "setting": "[2]", "result": 0.18, "unit": "nM"}, {"measurement": "WB/IL-2 IC50 (human whole blood)", "setting": "[2]", "result": 0.148, "unit": "nM"}]}, {"binder": "GVIRNVKCKISRQCLEPCKKAGMRFGKCMNGKCHCTPK (modifications not checked)", "note": "[OSK1 I4R]", "values": [{"measurement": "Kv1.1 IC50 (IonWorks electrophysiology)", "setting": "[1]", "result": 1.92, "unit": "pM"}, {"measurement": "Kv1.3 IC50 (IonWorks electrophysiology)", "setting": "[2]", "result": 10.4, "unit": "pM"}, {"measurement": "WB/IFNg IC50 (human whole blood)", "setting": "[2]", "result": 0.175, "unit": "nM"}, {"measurement": "WB/IL-2 IC50 (human whole blood)", "setting": "[2]", "result": 0.168, "unit": "nM"}]}, {"binder": "GVIIRVKCKISRQCLEPCKKAGMRFGKCMNGKCHCTPK (modifications not checked)", "note": "[OSK1 N5R]", "values": [{"measurement": "Kv1.1 IC50 (IonWorks electrophysiology)", "setting": "[1]", "result": 2.15, "unit": "pM"}, {"measurement": "Kv1.3 IC50 (IonWorks electrophysiology)", "setting": "[2]", "result": 13.6, "unit": "pM"}, {"measurement": "WB/IFNg IC50 (human whole blood)", "setting": "[2]", "result": 0.12, "unit": "nM"}, {"measurement": "WB/IL-2 IC50 (human whole blood)", "setting": "[2]", "result": 0.095, "unit": "nM"}]}, {"binder": "GVIINRKCKISRQCLEPCKKAGMRFGKCMNGKCHCTPK (modifications not checked)", "note": "[OSK1 V6R]", "values": [{"measurement": "Kv1.1 IC50 (IonWorks electrophysiology)", "setting": "[1]", "result": 2.4, "unit": "pM"}, {"measurement": "Kv1.3 IC50 (IonWorks electrophysiology)", "setting": "[2]", "result": 8.65, "unit": "pM"}, {"measurement": "WB/IFNg IC50 (human whole blood)", "setting": "[2]", "result": 0.115, "unit": "nM"}, {"measurement": "WB/IL-2 IC50 (human whole blood)", "setting": "[2]", "result": 0.084, "unit": "nM"}]}]}
